In patent US20110318348:

Assays:
[1] = molecular target: bovine serum albumin, bovine, P02769 25-607; test: SPR, BSA immobilized, pentabody at 10 nM
[2] = molecular target: bovine serum albumin, bovine, P02769 25-607; test: SPR, BSA immobilized, multivalent binding

Substance CTB-based pentabody C3C-BSA8 has a binding capacity (RU) [1] of 45 ru.

In the case of CTB-based pentabody C3C-BSA12, the binding capacity (RU) [1] was 700 ru and the koff [2] was < 1e-05 s⁻¹.

CTB-based pentabody C3C-BSA16 gave a binding capacity (RU) [1] of 700 ru.
